Test results published in article PMC6242839 (Nature Communications, 2018).

Test system: B. cereus
Test: Resistance development by serial passage on gradient concentration
Conditions: after 15 daily serial passages

`CCCCCCCCCCCCO[C@H]1C[C@H](O)[C@@H](O)[C@H](C)O1` [Compound 1] was tested, and the “Resistance development (change of MIC and MBC)” value was “No alteration of MIC and MBC values”.
